Compound potency records, mixed from different reports. Data source: NIAID ChemDB in PubChem.

All rows: target-level tests; organism: HIV-1; protein: Protease; measure: inhibition

Inhibition is in % at the dose shown (toxicity tests: loss of growth or viability). Rows are shuffled and stem from different studies. Blank or dashed fields: not listed here.

CCOC(=O)[C@@]1(C)CC[C@]2(C)CC[C@]3(C)C(=CC(=O)[C@@H]4[C@@]5(C)CC/C(=N\OCc6ccc7ccccc7c6)C(C)(C)[C@@H]5CC[C@]43C)[C@@H]2C1 ; method: substrate cleavage / fluorescence ; tested at: 1000 µg/mL ; value: 29%
CC[C@@H](C)[C@H](NC(=O)C1CCCN1C(=O)[C@@H](O)[C@H](Cc1ccccc1)NC(=O)[C@H](CCS(C)(=O)=O)NC(=O)CCc1ccccc1)C(=O)N[C@H](C(N)=O)C(C)C ; tested at: 0.05 µM ; value: 3.2%
O=C(CCC(O)CCC(=O)N[C@@H](Cc1ccccc1)C(=O)OCc1ccccc1)N[C@@H](Cc1ccccc1)C(=O)OCc1ccccc1 ; method: absorbance ; tested at: 10 µM ; value: <10%
CCOC(=O)[C@@]1(C)CC[C@]2(C)CC[C@]3(C)C(=CC(=O)[C@@H]4[C@@]5(C)CC/C(=N\OCc6ccccc6Br)C(C)(C)[C@@H]5CC[C@]43C)[C@@H]2C1 ; method: substrate cleavage / fluorescence ; tested at: 1000 µg/mL ; value: 34.3%
O=C([C@@H]1O[C@]2(c3ccccc3)CN(C(c3ccccc3)c3ccccc3)C(=O)[C@H]1O2)N1CCCNCC1 ; method: FRET ; tested at: 10 µM ; value: 0%
CC(C)(C)OC(=O)N[C@@H](CO)C(=O)N[C@@H](Cc1ccccc1)[C@H](O)C(=O)NCC1CCCCC1 ; tested at: 1000 µM ; value: 84.4%
C[C@@H](CO)NC(=O)[C@@H]1O[C@H]2O[C@@H]1C(=O)N(Cc1ccccc1)[C@@H]2Cc1ccccc1 ; method: FRET ; tested at: 1 µM ; value: 0%
CCOC(=O)[C@@]1(C)CC[C@]2(C)CC[C@]3(C)C(=CC(=O)[C@@H]4[C@@]5(C)CC/C(=N\OCc6cnc(Cl)s6)C(C)(C)[C@@H]5CC[C@]43C)[C@@H]2C1 ; method: substrate cleavage / fluorescence ; tested at: 1000 µg/mL ; value: 20.9%
O=c1[nH]c2ccccc2cc1CNC1CCCCC1 ; method: substrate cleavage / fluorescence ; tested at: 20 µM ; value: -37.8%
CCOC(=O)[C@@]1(C)CC[C@]2(C)CC[C@]3(C)C(=CC(=O)[C@@H]4[C@@]5(C)CC/C(=N\OCc6ccccc6Cl)C(C)(C)[C@@H]5CC[C@]43C)[C@@H]2C1 ; method: substrate cleavage / fluorescence ; tested at: 1000 µg/mL ; value: 21.5%
COc1ccc2[nH]c(=O)c(CNC3CC3)cc2c1 ; method: substrate cleavage / fluorescence ; tested at: 20 µM ; value: 0.5%
COC(=O)[C@@H](NC(=O)/C=C/C(=O)N[C@H](C(=O)OC)C(C)C)C(C)C ; method: absorbance ; tested at: 10 µM ; value: <10%
COc1ccc2[nH]c(=O)c(CNC3CCCC3)cc2c1 ; method: substrate cleavage / fluorescence ; tested at: 20 µM ; value: -10.2%
COC(=O)[C@@H](NC(=O)CCC(O)CCC(=O)N[C@H](C(=O)OC)C(C)C)C(C)C ; method: absorbance ; tested at: 10 µM ; value: <10%
CC(C)(NC(=O)[C@@H]1CCCN1C(=O)[C@@H](O)[C@H](Cc1ccccc1)NC(=O)[C@H](CC(N)=O)NC(=O)OCc1ccccc1)C(N)=O ; tested at: 5 µM ; value: >90%
CCCOC(=O)[C@H](Cc1ccccc1)NC(=O)C(=O)N[C@@H](Cc1ccccc1)C(=O)OCCC ; method: absorbance ; tested at: 10 µM ; value: <10%
O=C(c1ccccc1)N(Cc1cc2ccccc2[nH]c1=O)C1CCCC1 ; method: substrate cleavage / fluorescence ; tested at: 20 µM ; value: -3.2%
CC(C)(C)NC(=O)[C@@H]1C=C(c2ccccc2)CN1C(=O)[C@@H](O)[C@H](Cc1ccccc1)NC(=O)[C@H](CC(N)=O)NC(=O)OCc1ccccc1 ; tested at: 0.05 µM ; value: 50.2%
CCOC(=O)[C@@]1(C)CC[C@]2(C)CC[C@]3(C)C(=CC(=O)[C@@H]4[C@@]5(C)CC/C(=N\OCc6c(C)noc6C)C(C)(C)[C@@H]5CC[C@]43C)[C@@H]2C1 ; method: substrate cleavage / fluorescence ; tested at: 1000 µg/mL ; value: 17.1%
CC(C)(C)NC(=O)[C@H]1N(C(=O)[C@@H](O)[C@H](Cc2ccccc2)NC(=O)[C@H](CC(N)=O)NC(=O)COc2cccc3cnccc23)CSC1(C)C ; tested at: 0.05 µM ; value: 97.6%
O=C([C@@H]1O[C@@H]2CN(Cc3ccccc3)C(=S)[C@H]1O2)N1CCOCC1 ; method: FRET ; tested at: 10 µM ; value: 0%
CC(C)COC(=O)[C@@H](Cc1ccccc1)NC(=O)C(=O)N[C@H](Cc1ccccc1)C(=O)OCC(C)C ; method: absorbance ; tested at: 10 µM ; value: <10%
COC1C[C@@H](C(=O)NC(C)(C)C)N(C(=O)[C@@H](O)[C@H](Cc2ccccc2)NC(=O)[C@H](CS(C)(=O)=O)NC(=O)COc2cccc3ccccc23)C1 ; tested at: 0.05 µM ; value: 25.2%
O=C([C@H]1O[C@H]2CN(Cc3ccccc3)C(=O)[C@@H]1O2)N1CCCCC1 ; method: FRET ; tested at: 10 µM ; value: 0%
CC(C)C(C)OC(=O)[C@H](Cc1ccccc1)NC(=O)C(=O)N[C@@H](Cc1ccccc1)C(=O)OC(C)C(C)C ; method: absorbance ; tested at: 10 µM ; value: 37%
CC(C)(C)NC(=O)[C@H]1N(C(=O)[C@@H](O)[C@H](Cc2ccccc2)NC(=O)[C@H](CC(N)=O)NC(=O)COc2ccccc2-c2ccccc2)CSC1(C)C ; tested at: 0.05 µM ; value: 97%
CC(C)[C@H](NC(=O)CCCCCC(=O)N[C@H](C(=O)OCc1ccccc1)C(C)C)C(=O)OCc1ccccc1 ; method: absorbance ; tested at: 10 µM ; value: <10%
CCOC(=O)[C@@]1(C)CC[C@]2(C)CC[C@]3(C)C(=CC(=O)[C@@H]4[C@@]5(C)CC/C(=N\OCc6ccc(C(=O)OC)o6)C(C)(C)[C@@H]5CC[C@]43C)[C@@H]2C1 ; method: substrate cleavage / fluorescence ; tested at: 1000 µg/mL ; value: 70.5%
CC1(C)CCN(C(=O)[C@@H](O)[C@H](Cc2ccccc2)NC(=O)[C@H](CC(N)=O)NC(=O)OCc2ccccc2)[C@@H]1C(N)=O ; tested at: 0.05 µM ; value: 1.9%
CCCC[C@H](NC(=O)C(=O)N[C@@H](CCCC)C(=O)OCC(C)C)C(=O)OCC(C)C ; method: absorbance ; tested at: 10 µM ; value: 35%
CS(=O)(=O)C[C@H](NC(=O)COc1cccc2ccccc12)C(=O)N[C@@H](Cc1ccccc1)[C@H](O)C(=O)N1CCC[C@H]1C(=O)Nc1ccccc1O ; tested at: 0.05 µM ; value: 3.3%
O=C(c1ccccc1)N(Cc1cc2ccccc2[nH]c1=O)C1CC1 ; method: substrate cleavage / fluorescence ; tested at: 20 µM ; value: -21.1%

The first 5 rows once more:

compound | method | tested at | value
CCOC(=O)[C@@]1(C)CC[C@]2(C)CC[C@]3(C)C(=CC(=O)[C@@H]4[C@@]5(C)CC/C(=N\OCc6ccc7ccccc7c6)C(C)(C)[C@@H]5CC[C@]43C)[C@@H]2C1 | substrate cleavage / fluorescence | 1000 µg/mL | 29%
CC[C@@H](C)[C@H](NC(=O)C1CCCN1C(=O)[C@@H](O)[C@H](Cc1ccccc1)NC(=O)[C@H](CCS(C)(=O)=O)NC(=O)CCc1ccccc1)C(=O)N[C@H](C(N)=O)C(C)C |  | 0.05 µM | 3.2%
O=C(CCC(O)CCC(=O)N[C@@H](Cc1ccccc1)C(=O)OCc1ccccc1)N[C@@H](Cc1ccccc1)C(=O)OCc1ccccc1 | absorbance | 10 µM | <10%
CCOC(=O)[C@@]1(C)CC[C@]2(C)CC[C@]3(C)C(=CC(=O)[C@@H]4[C@@]5(C)CC/C(=N\OCc6ccccc6Br)C(C)(C)[C@@H]5CC[C@]43C)[C@@H]2C1 | substrate cleavage / fluorescence | 1000 µg/mL | 34.3%
O=C([C@@H]1O[C@]2(c3ccccc3)CN(C(c3ccccc3)c3ccccc3)C(=O)[C@H]1O2)N1CCCNCC1 | FRET | 10 µM | 0%